The exact form of at least one protein or probe is not confirmed. Weaker means in comparison with the reference protein, sequence or condition of that experiment.

The chains behind the UniProt entries cited, without tags or fusion partners. Where a name states a change or a piece, a line headed by the entry shows the natural chain unless it says otherwise.
UniProt P06663: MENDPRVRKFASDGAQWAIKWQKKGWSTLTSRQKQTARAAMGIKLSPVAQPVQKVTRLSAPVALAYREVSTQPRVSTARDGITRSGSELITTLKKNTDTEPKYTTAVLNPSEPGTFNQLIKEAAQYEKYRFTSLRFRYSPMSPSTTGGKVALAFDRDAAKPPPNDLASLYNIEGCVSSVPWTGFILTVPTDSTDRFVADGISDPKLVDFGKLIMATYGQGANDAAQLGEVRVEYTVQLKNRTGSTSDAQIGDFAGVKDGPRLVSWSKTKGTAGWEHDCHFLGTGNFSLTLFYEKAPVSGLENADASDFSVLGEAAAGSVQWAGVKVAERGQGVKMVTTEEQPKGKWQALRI

Drawing on doi:10.1101/2025.11.26.690650, this text covers binding result and Ki for three sequences.

For the series, the target named is TCV P38 (capsid protein, VSR) wild type (Turnip crinkle virus (pTCV cDNA)) (UniProt P06663). Briefly: competition with a labelled probe. The conditions noted are these: 5'-phosphate.

In the case of “UCGCUUGGUGCAGGUCGGGAA / CCCGCCUUGCAUCAACUGAAU [AtmiR168]”, the binding result (vs labelled siR gf698_21, barely outcompeted) is listed as “binds more weakly”. For “UCGAUAAACCUCUGCAUCCAG / GGAGGCAGCGGUUCAUCGAUC [AtmiR162]”, the Ki (vs labelled siR gf698_21, not replaceable below 25 nM) was greater than 25 nM. As for “UAGUUCAUCCAUGCCAUGUGU / ACAUGGCAUGGAUGAACUAUA [siR gf698_21]”, the Ki is, setting by setting: (KC vs labelled siR gf698_21) 4.5 nM; (KC vs labelled siR gf698_24) 1.4 nM.

In general, Ki refers to the dissociation constant of the complex between target and ligand, obtained from inhibition or displacement. Read a high Ki as weaker binding.
